Reference: ChEMBL document CHEMBL3124837, “Bicyclic 1-hydroxy-2-oxo-1,2-dihydropyridine-3-carboxamide-containing HIV-1 integrase inhibitors having high antiviral potency against cells harboring raltegravir-resistant integrase mutants” (J Med Chem, 2014)

Biological target: Human immunodeficiency virus type 1 integrase (Human immunodeficiency virus 1) (UniProt Q7ZJM1)
Assay: Selectivity ratio of IC50 for HIV-1 integrase-mediated 3'-processing activity to IC50 for HIV-1 integrase-mediated strand transfer activity

Row | SMILES | Ratio IC50
1 | O=C(NCc1ccc(F)c(F)c1)c1cc2cccc(O)c2n(O)c1=O | 30
2 | O=C(NCc1ccc(F)c(Cl)c1)c1cc2cccc(O)c2n(O)c1=O | 30
